Anti-infective test results gathered from many reports (values: NIAID ChemDB through PubChem).

Shared fields: target-level tests; agent: HIV-1; target: Integrase

Blank or dashed fields: not listed here.

compound	changes	measure	method	result
O=C(C1=NS(=O)(=O)c2ccc(Cl)cc2S1)c1ccc(Cl)cc1	INTG-C65S	IC50	3′ processing	100 µM
O=C(NCc1ccc(F)cc1)C1C(=O)N(O)C(=O)c2ccccc21		IC50	3′ processing	0.066 µM
O=C(O)C(=O)/C=C(\O)c1cn(-c2ccccc2)c(=O)[nH]c1=O		IC50	strand transfer	0.5 µM
C[C@H](NC(=O)c1nc(-c2cccs2)[nH]c(=O)c1O)c1ccccc1		IC50		5 µM
O=c1c(S(=O)c2ccccc2)cn2ccn(Cc3cccc(Cl)c3)c(=O)c2c1O		IC50	ELISA	0.01–0.1 µM
Cc1c(F)cc(Br)c(CNC(=O)c2nc3n(c(=O)c2O)CC2(CO)CCC3(NC(=O)C(=O)N(C)C)CC2)c1Br		Ki	radiometric	0.0000061 µM
O=C(OCC1OC(OC2Cc3c(O)cc(O)cc3OC2c2cc(O)c(O)c(O)c2)C(O)C(O)C1O)c1cc(O)c(O)c(O)c1		IC50		2.66 µM
CC(C)c1cn(Cc2cccc(Cl)c2)c(=O)c2c(O)c(=O)c(Br)cn12		IC50	ELISA	0.01–0.1 µM
O=C(O)C(=O)/C=C(\O)c1cc(=O)n(Cc2ccccc2)c(=O)n1Cc1ccccc1		IC50	3′ processing	62.5 µM
CC(=O)Nc1cn2ccn(Cc3cccc(Cl)c3)c(=O)c2c(O)c1=O		IC50	ELISA	0.01–0.1 µM
CC(C)(C)NS(=O)(=O)c1ccccc1-c1cccc(C(=O)Nc2ccc(CCC(=O)O)cc2)c1	A128T	IC50	strand transfer / fluorescence	4.529 µM
Cc1cc2c(cc1Cl)SC(C(=O)c1ccc([N+](=O)[O-])cc1)=NS2(=O)=O	INTG-C65S	IC50	3′ processing	11 µM
COCC12CCC(N(C)C(=O)C(=O)N(C)C)(CC1)c1nc(C(=O)NCc3ccc(F)c(C)c3)c(O)c(=O)n1C2		Ki	radiometric	0.0000022 µM
Cc1cc(Cl)cc2c1S(=O)(=O)N=C(C(=O)c1ccc3ccccc3c1)S2	INTG-C65S	IC50	strand transfer	20 µM
C=CCOc1ccc(C[C@H](NC(C)=O)C(=O)N[C@@H](CCCCN=C(N)N)C(=O)NCCCC(=O)OC)cc1		IC50	strand transfer	5.5 µM
Cn1ncnc1-c1cn2ccn(Cc3ccc(F)cc3)c(=O)c2c(O)c1=O		IC50	ELISA	<0.01 µM
COc1cc(/C=C/C(=O)O)ccc1O		IC50		9.35 µM
O=C(NCc1ccccc1)c1cn2ccn(Cc3cccc(Cl)c3)c(=O)c2c(O)c1=O		IC50	ELISA	<0.01 µM
O=C(C1=NS(=O)(=O)c2ccc(Cl)cc2S1)c1ccc(Cl)c(Cl)c1		IC50	strand transfer	19 µM
CNC(=O)c1cn2c(CO)cn(Cc3ccc(F)c(Cl)c3)c(=O)c2c(O)c1=O		IC50	ELISA	<0.01 µM
CC(=O)N(C)C12CCC(F)(CC1)Cn1c2nc(C(=O)NCc2ccc(F)c(C)c2)c(O)c1=O		Ki	radiometric	0.0000033 µM
O=C(O)C(=O)/C=C(\O)c1cn(Cc2ccccc2)c(=O)n(Cc2ccccc2)c1=O		IC50	3′ processing	3.7 µM
COc1c(O)c2c3c(c(O)cc(O)c3c1O)C(C)=CC2=O		IC50	strand transfer	10 µM
CN(C)C(=O)C(=O)N(C)C12CCC(CC#N)(CC1)Cn1c2nc(C(=O)NCc2ccc(F)cc2)c(O)c1=O		Ki	radiometric	0.0000023 µM
Cc1cc(Cl)cc2c1S(=O)(=O)N=C(C(=O)c1ccc(Cl)cc1)S2		IC50	3′ processing	27 µM
Cc1cc(CNC(=O)c2nc3n(c(=O)c2O)CC2(F)CCC3(NC(=O)c3cc(C(=O)N(C)C)on3)CC2)ccc1F		Ki	radiometric	0.0000022 µM
CC(C)SCc1cc(=O)c(O)c2n1CCN(Cc1ccc(Cl)c(Cl)c1)C2=O		IC50	ELISA	0.01–0.1 µM
Cc1cc(CNC(=O)c2nc3n(c(=O)c2O)CC2(N(C)C)CCC3(N(C)C(=O)C(=O)N(C)C)CC2)ccc1F		Ki	radiometric	0.000007 µM
C=CCOc1ccc(C[C@H](NC(=O)c2ccccc2OCc2ccccc2)C(=O)N[C@@H](CCCCN)C(=O)NCCCC(=O)OC)cc1		IC50	strand transfer	5 µM
C[C@@H](NC(=O)/C=C(\O)C(=O)O)c1ccccc1		IC50		24 µM
COc1ccc(C(=O)C2=NS(=O)(=O)c3cc(C)c(Cl)cc3S2)cc1	INTG-C65S	IC50	strand transfer	30 µM
O=C1c2c(O)c(=O)c(-c3nccs3)cn2CCN1CCCc1cccc(Cl)c1		IC50	ELISA	0.01–0.1 µM
CN(C)C(=O)C(=O)N(C)C12CCC(CO)(CC1)Cn1c2nc(C(=O)NCc2ccc(F)cc2)c(O)c1=O		Ki	radiometric	0.0000028 µM
O=C(O)C(=O)/C=C(\O)c1cn(-c2ccccc2)c(=O)n(-c2ccc(F)cc2)c1=O		IC50	strand transfer	<0.6 µM
Cc1cccc(CNC(=O)c2nc3n(c(=O)c2O)CC2(F)CCC3(NC(=O)C(=O)C(C)C)CC2)c1F		Ki	radiometric	0.0000029 µM
C[C@@H](NC(=O)c1nc(-c2cccs2)[nH]c(=O)c1O)c1ccccc1		IC50		0.5 µM

A second listing of 2 rows from above:

compound	changes	measure	method	result
COc1c(O)c2c3c(c(O)cc(O)c3c1O)C(C)=CC2=O		IC50	strand transfer	10 µM
CC(=O)Nc1cn2ccn(Cc3cccc(Cl)c3)c(=O)c2c(O)c1=O		IC50	ELISA	0.01–0.1 µM

a–b is a range or a potency band. ICn: concentration for n% inhibition. Conditions beyond the fields shown may differ between rows.